Anti-infective test results gathered from many reports (values: NIAID ChemDB through PubChem).

All rows: whole-cell or culture tests; agent: HIV-1

Blank or dashed fields: not listed here. ECn: concentration that inhibits the pathogen or its effect by n%. Lines come from different laboratories, so protocols vary.

SMILES	cells	strain	read by	mutations	read-out	result
Cc1cn([C@H]2C[C@H](N=[N+]=[N-])[C@@H](CO)O2)c(=O)[nH]c1=O	MT-4	NL4-3	cytopathic effect / MTT	-	EC50	0.0002 µg/mL
NCCCCCCN1CCCN(CCCCCCN)CCCN(CCCCCCN)CCN(CCCCCCN)CCC1	MT-4	LAV	syncytia	-	EC50	>50 µM
Clc1cc(/C=C/c2ccc3ccccc3c2)nc2ccccc12	TZM-bl	UG070	luminescence	-	EC50	19.32 µM
O=C1CCCN1CCCN1CC(=O)N2CC(N(CCOc3ccccc3)S(=O)(=O)c3cccc(F)c3)C[C@H]2C1=O	TZM-bl	PLAI-JRFL WILD TYPE	luciferase	-	EC50	0.425 µM
Cc1cn([C@H]2C[C@H](N=[N+]=[N-])[C@@H](CO)O2)c(=O)[nH]c1=O	CEM + CEM-SS	IIIB	cytopathic effect / XTT	-	EC50	0.003 µM
NCCCCN1CCCN(CCCCN)CCN(CCCCN)CCCN(CCCCN)CC1	MT-4	LAV	syncytia	-	EC50	10 µM
Cc1cc(C)cc(Cc2c(CC(C)C)c(C)[nH]c(=O)c2N(C)C)c1	MT-4	Recombinant	cytopathic effect / MTT	RT-Y188L	EC50	2.512 µM
CC(C)[C@H](NC(=O)COc1cccc2cnccc12)C(=O)N[C@@H](Cc1ccccc1)[C@H](O)C(=O)N1CSC[C@H]1C(=O)NC(C)(C)C	CEM + CEM-SS	IIIB	cytopathic effect / XTT	-	EC50	0.031 µM
Fc1ccc(/C=C/c2cc(Cl)c3ccccc3n2)c(F)c1	TZM-bl	VB59	luminescence	-	EC50	>166 µM
CC(C)(C)NC(=O)[C@H]1N(C(=O)[C@@H](O)[C@H](Cc2ccccc2)NC(=O)[C@H](CC(N)=O)NC(=O)COc2cccc3cnccc23)CSC1(C)C	CEM + CEM-SS	IIIB	cytopathic effect / XTT	-	EC50	0.225 µM
Cc1ccc(-n2nnnc2SCC(=O)Nc2ccccc2[N+](=O)[O-])cc1	MT-4	-	p24	-	EC50	<10 µM
CC1=C(C(=O)Nc2ccc(Cl)c(C(=O)OC(C)C)c2)SCCO1	CEM + CEM-SS	IIIB	-	-	EC50	2.4 µM
Cc1cc(C)c(-n2nnnc2SCC(=O)Nc2ccc(C#N)cc2Cl)c(C)c1	MT-4	-	p24	-	EC95	<10 µM
Clc1cc(/C=C/c2ccc(N3CCCCC3)cc2)nc2ccccc12	TZM-bl	UG070	luminescence	-	EC50	66.79 µM
Nc1nc(NC2CC2)c2ncn([C@H]3C=C[C@@H](CO)C3)c2n1	MT-2	RT-T69G K103N	p24	1(T69G+K103N)	EC50	0.149 µM
COC(=O)c1ccccc1NC(=O)CSc1nnnn1-c1cccc2ccccc12	MT-4	-	p24	-	EC50	<10 µM
Cc1ccnc2c1NC(=O)c1cccnc1N2C1CC1	HT4 + HT4 LacZ-1	HIVRTMF (RT L74V)	plaque count	RT-L74V T215Y	EC50	0.05 µM
O=c1[nH]cnc2c1ncn2[C@H]1CC[C@@H](CO)O1	MT-2	-	p24	RT-K103N	EC50	0.4 µM
NC(=O)c1ncn([C@@H]2O[C@H](CO)[C@@H](O)[C@H]2O)n1	ATH8	-	cytopathic effect	-	EC50	>2.5 µM
O=S(=O)(O)OCC1OC2OC3C(COS(=O)(=O)O)OC(OC4C(COS(=O)(=O)O)OC(OC5C(COS(=O)(=O)O)OC(OC6C(COS(=O)(=O)O)OC(OC7C(COS(=O)(=O)O)OC(OC8C(COS(=O)(=O)O)OC(OC9C(COS(=O)(=O)O)OC(OC1C(OS(=O)(=O)O)C2OS(=O)(=O)O)C(OS(=O)(=O)O)C9OS(=O)(=O)O)C(OS(=O)(=O)O)C8OS(=O)(=O)O)C(OS(=O)(=O)O)C7OS(=O)(=O)O)C(OS(=O)(=O)O)C6OS(=O)(=O)O)C(OS(=O)(=O)O)C5OS(=O)(=O)O)C(OS(=O)(=O)O)C4OS(=O)(=O)O)C(OS(=O)(=O)O)C3OS(=O)(=O)O	MT-4	NL4-3	cytopathic effect / MTT	-	EC50	0.14 µg/mL
C#Cc1c(C(N)=O)ncn1[C@@H]1O[C@H](CO)[C@@H](O)[C@H]1O	PBL	IIIB	p24	-	EC50	>0.5 µM
Cc1cc(C)c(-n2nnnc2SCC(=O)Nc2cc(C)on2)c(C)c1	MT-4	-	p24	-	EC95	<10 µM
O=C(NCCCCN1CCCN(CCCCNC(=O)OCc2ccccc2)CCN(CCCCNC(=O)OCc2ccccc2)CCCN(CCCCNC(=O)OCc2ccccc2)CC1)OCc1ccccc1	MT-4	LAV	syncytia	-	EC50	>10 µM
Nc1ccn([C@H]2CC[C@@H](CO)O2)c(=O)n1	HT4 + HT4-6C	LAV-1	syncytia	-	EC50	<0.1 µM
O=C(CSc1nnnn1-c1cccc(Cl)c1Cl)Nc1ccccc1Cl	MT-4	-	p24	-	EC95	<10 µM
Clc1cc(/C=C/c2ccco2)nc2ccccc12	TZM-bl	VB59	luminescence	-	EC50	82.52 µM
Cc1nc2ccccc2n1C1C[C@H]2CC[C@@H](C1)N2CC[C@H](NC(=O)C1CCOCC1)c1ccccc1	HeLaP4	BaL	β-galactosidase	-	EC50	0.000216 µM
Clc1cc(/C=C/c2ccc(-c3ccccc3)cc2)nc2ccccc12	TZM-bl	UG070	luminescence	-	EC50	85.42 µM
C=C(C)[C@@H]1CC[C@]2(C(=O)NCCCCCCCC(=O)N[C@@H](CC(C)C)[C@H](O)CC(=O)O)CC[C@]3(C)[C@H](CC[C@@H]4[C@@]5(C)CC[C@H](O)C(C)(C)[C@@H]5CC[C@]43C)[C@@H]12	CEM	NL4-3	RT activity	-	EC90	0.22 µM
Cc1cc(C)c(-n2nnnc2SCC(=O)Nc2cc([N+](=O)[O-])ccc2Cl)c(C)c1	MT-4	-	p24	-	EC50	<10 µM
CSC[C@H](NC(=O)COc1cccc(Nc2ccccc2)c1)C(=O)N[C@@H](Cc1ccccc1)[C@H](O)C(=O)N1CSC(C)(C)[C@H]1C(=O)NC(C)(C)C	CEM + CEM-SS	IIIB	cytopathic effect / XTT	-	EC50	0.0068 µM
NCCCCCN1CCCN(CCCCCN)CCCN(CCCCCN)CCN(CCCCCN)CCC1	MT-4	LAV	syncytia	-	EC50	1 µM
COc1cccc(/C=C/c2cc(Cl)c3ccccc3n2)c1OC	TZM-bl	UG070	luminescence	-	EC50	97.92 µM
O=C(NCCCCCCN1CCCN(CCCCCCNC(=O)OCc2ccccc2)CCCN(CCCCCCNC(=O)OCc2ccccc2)CCN(CCCCCCNC(=O)OCc2ccccc2)CCC1)OCc1ccccc1	MT-4	LAV	syncytia	-	EC50	>1 µM
CC(C)[C@H](NC(=O)COc1cccc(N(C)C)c1)C(=O)N[C@@H](Cc1ccccc1)[C@H](O)C(=O)N1CSC(C)(C)[C@H]1C(=O)NC(C)(C)C	CEM + CEM-SS	IIIB	cytopathic effect / XTT	-	EC50	0.015 µM
Cc1cc(C)c(-n2nnnc2SCC(=O)Nc2ccc(Cl)cn2)c(C)c1	MT-4	-	p24	-	EC95	<10 µM
Cc1ccnc2c1NC(=O)c1cccnc1N2C1CC1	MT-4	Recombinant	cytopathic effect / MTT	RT-G190A	EC50	7.943 µM
Cc1cc(C)c(-n2nnnc2SCC(=O)Nc2ccccc2[N+](=O)[O-])c(C)c1	MT-4	-	p24	-	EC95	<10 µM
CC(C)=C1C=C(C(C)C)C(O)CC1	-	-	-	-	EC50	50 µM

The last 5 rows once more:

{"SMILES": "CC(C)[C@H](NC(=O)COc1cccc(N(C)C)c1)C(=O)N[C@@H](Cc1ccccc1)[C@H](O)C(=O)N1CSC(C)(C)[C@H]1C(=O)NC(C)(C)C", "cells": "CEM + CEM-SS", "strain": "IIIB", "read by": "cytopathic effect / XTT", "read-out": "EC50", "result": "0.015 µM"}
{"SMILES": "Cc1cc(C)c(-n2nnnc2SCC(=O)Nc2ccc(Cl)cn2)c(C)c1", "cells": "MT-4", "read by": "p24", "read-out": "EC95", "result": "<10 µM"}
{"SMILES": "Cc1ccnc2c1NC(=O)c1cccnc1N2C1CC1", "cells": "MT-4", "strain": "Recombinant", "read by": "cytopathic effect / MTT", "mutations": "RT-G190A", "read-out": "EC50", "result": "7.943 µM"}
{"SMILES": "Cc1cc(C)c(-n2nnnc2SCC(=O)Nc2ccccc2[N+](=O)[O-])c(C)c1", "cells": "MT-4", "read by": "p24", "read-out": "EC95", "result": "<10 µM"}
{"SMILES": "CC(C)=C1C=C(C(C)C)C(O)CC1", "read-out": "EC50", "result": "50 µM"}